{"source": "PubChem BioAssay AID624483", "about": "(NMMLSC, 2012)", "note": "This is a selection; strong and weak results do not stand in their true shares. Activity calls are given as the source filed them. Rule as the data show it: active = fluorescence intensity above about 16000; inconclusive = no clear call, values can overlap the other calls; inactive = below that.", "data": [{"assay": "counter-screen for toxin protease inhibitors: compound fluorescence, primary screen, artefact control for toxin protease inhibitor project, biochemical, multiplex microsphere, HTS (AID 624483); also: test concentration not given here", "settings": "compound autofluorescence counterscreen, microsphere flow cytometry; hits give high values", "values": [{"smiles": "Cc1cccc(C)c1OP(C)(N)=O", "note": "(centres undefined)", "fluorescence intensity": "inactive: 3210"}, {"smiles": "[N-]=[N+]=NC1CCCCC1NC(=O)c1cc([N+](=O)[O-])cc([N+](=O)[O-])c1", "note": "(centres undefined)", "fluorescence intensity": "inactive: 6020"}, {"smiles": "Cc1ccc(OP(=O)(Nc2ccc([N+](=O)[O-])cn2)Oc2ccc(C)cc2)cc1", "fluorescence intensity": "inactive: 3060"}, {"smiles": "CC(C)(C)c1ccc(OP(C)(=O)Nc2ccc(SC(F)(F)F)cc2)cc1", "note": "(centres undefined)", "fluorescence intensity": "inactive: 2640"}, {"smiles": "O=[N+]([O-])c1ccc2c(c1)C=Nc1ccccc1O2", "fluorescence intensity": "inactive: 2130"}, {"smiles": "Cc1ccc2nc3c(c(C)c2c1)CC(C(Cl)Cl)S3", "note": "(centres undefined)", "fluorescence intensity": "inactive: 2550"}, {"smiles": "O=[N+]([O-])c1cc([N+](=O)[O-])c(Nc2cccnc2)c([N+](=O)[O-])c1", "fluorescence intensity": "inactive: 4020"}, {"smiles": "O=[N+]([O-])c1ccc(-c2cc([N+](=O)[O-])c(O)c([N+](=O)[O-])c2)cc1", "fluorescence intensity": "inactive: 2860"}, {"smiles": "COc1cc(C(=O)NCC2(N3CCOCC3)CCCCC2)ccc1OCC(C)C", "fluorescence intensity": "inactive: 6560"}, {"smiles": "C[As](=O)(O)c1cccc(C(=O)O)c1", "fluorescence intensity": "inactive: 3520"}, {"smiles": "O=[As](O)(c1ccc(O)cc1)c1ccccc1O", "fluorescence intensity": "inactive: 4510"}, {"smiles": "COc1ccc(OP(C)(=O)Nc2cccc(F)c2)cc1", "note": "(centres undefined)", "fluorescence intensity": "inactive: 4030"}, {"smiles": "O=[N+]([O-])c1cc([N+](=O)[O-])c(-c2ccn[nH]2)s1", "fluorescence intensity": "inactive: 2090"}, {"smiles": "COc1ccccc1OP(C)(=O)Nc1cc(Cl)ccc1C", "note": "(centres undefined)", "fluorescence intensity": "inactive: 5020"}, {"smiles": "CC(C)NC(=O)NP(=O)(Oc1ccccc1)Oc1ccccc1", "fluorescence intensity": "inactive: 3540"}, {"smiles": "O=C(OC1CN2CCC1CC2)c1cccc2[nH]cnc12", "note": "(centres undefined)", "fluorescence intensity": "inactive: 3360"}, {"smiles": "CCN(CC)C(=S)SC(NC=O)C(Cl)(Cl)Cl", "note": "(centres undefined)", "fluorescence intensity": "inactive: 5580"}, {"smiles": "Cc1cc(C)cc(OP(C)(N)=O)c1", "note": "(centres undefined)", "fluorescence intensity": "inactive: 4610"}, {"smiles": "ClCCSc1nnc(-c2cccnc2)o1", "fluorescence intensity": "inactive: 8080"}, {"smiles": "CCOC(=O)c1ccc(NP(C)(=O)Oc2ccccc2)cc1", "note": "(centres undefined)", "fluorescence intensity": "inactive: 2620"}, {"smiles": "COC(=O)C1(C)COP(=O)(N2CCCCCC2)OC1", "note": "(centres undefined)", "fluorescence intensity": "inactive: 4030"}, {"smiles": "CC(C)c1ccc(OP(=O)(Nc2ccccn2)Oc2ccccc2F)cc1", "note": "(centres undefined)", "fluorescence intensity": "inactive: 4680"}, {"smiles": "Cc1ccc(NP(C)(=O)Oc2ccccc2)c(C)c1", "note": "(centres undefined)", "fluorescence intensity": "inactive: 2980"}, {"smiles": "COc1ccccc1OP(C)(=O)Nc1ccc(C)cc1", "note": "(centres undefined)", "fluorescence intensity": "inactive: 2340"}, {"smiles": "O=P1(N(CCCl)CCCl)OCCCN1CCCl", "note": "(centres undefined)", "fluorescence intensity": "inactive: 4090"}, {"smiles": "O=P1(N(CCCl)CCCl)Nc2ccccc2N1", "fluorescence intensity": "inactive: 2830"}, {"smiles": "COc1cc(I)ccc1[As](=O)(O)O", "fluorescence intensity": "inactive: 4060"}, {"smiles": "COc1ccc2nc(NP(=O)(c3ccccc3)c3ccccc3)sc2c1", "fluorescence intensity": "inactive: 4360"}, {"smiles": "Cc1c2c(nc3ccccc13)SC(C(Cl)Cl)C2", "note": "(centres undefined)", "fluorescence intensity": "inactive: 2610"}, {"smiles": "CCN(CC)CCCOC(=O)C(O)(c1ccccc1)c1ccccc1", "fluorescence intensity": "inactive: 3230"}, {"smiles": "Cc1cc(=O)[nH]c(N[N+](=O)[O-])n1", "fluorescence intensity": "inactive: 2080"}, {"smiles": "O=C(OC1CN2CCC1CC2)C12CC3CC(CC(C3)C1)C2", "note": "(centres undefined)", "fluorescence intensity": "inactive: 3840"}, {"smiles": "O=[N+]([O-])c1cc(Oc2ccc([N+](=O)[O-])cc2C(F)(F)F)cc([N+](=O)[O-])c1", "fluorescence intensity": "inactive: 3800"}, {"smiles": "COc1ccccc1-c1ccccn1.O=[N+]([O-])c1cc([N+](=O)[O-])c(O)c([N+](=O)[O-])c1", "fluorescence intensity": "inactive: 5920"}, {"smiles": "COc1ccc(N/C(=N/P(=O)(N2CCOCC2)N2CCOCC2)N2CCOCC2)cc1", "fluorescence intensity": "inactive: 3850"}, {"smiles": "O=C(Nc1ccncc1[N+](=O)[O-])c1ccc([N+](=O)[O-])cc1[N+](=O)[O-]", "fluorescence intensity": "inactive: 4020"}, {"smiles": "Cc1cc(C)cc(OP(C)(=O)Nc2ccc(SC(F)(F)F)cc2)c1", "note": "(centres undefined)", "fluorescence intensity": "inactive: 2080"}, {"smiles": "O=C(COc1ccccc1)OC1CN2CCC1CC2", "note": "(centres undefined)", "fluorescence intensity": "inactive: 4550"}, {"smiles": "CP(=O)(NC(=O)Nc1ccccc1)Oc1ccccc1", "note": "(centres undefined)", "fluorescence intensity": "inactive: 6990"}, {"smiles": "CCc1ccc(OP(C)(=O)N2CCN(c3ccc([N+](=O)[O-])cc3)CC2)cc1", "note": "(centres undefined)", "fluorescence intensity": "inactive: 4060"}, {"smiles": "CP(=O)(Oc1ccccc1)OC(c1ccccc1)C(F)(F)F", "note": "(centres undefined)", "fluorescence intensity": "inactive: 4340"}, {"smiles": "COC(=O)C1(C)COP(=O)(N2CCCC2)OC1", "note": "(centres undefined)", "fluorescence intensity": "inactive: 6670"}, {"smiles": "COP1(=S)c2c(C)nn(CCC#N)c2N=C(c2ccc(F)cc2)N1C", "note": "(centres undefined)", "fluorescence intensity": "inactive: 11000"}, {"smiles": "Cc1cccc(C)c1OP(C)(=O)Nc1ccc(SC(F)(F)F)cc1", "note": "(centres undefined)", "fluorescence intensity": "inactive: 2390"}, {"smiles": "Cc1ccc(Nc2c([N+](=O)[O-])cc([N+](=O)[O-])cc2[N+](=O)[O-])cc1", "fluorescence intensity": "inactive: 3670"}, {"smiles": "CP(=O)(Nc1ccc(SC(F)(F)F)cc1)Oc1ccc(Cl)cc1", "note": "(centres undefined)", "fluorescence intensity": "inactive: 6030"}, {"smiles": "CCC(C)N(CC(C)C)C(=S)SC(NC(C)=O)C(Cl)(Cl)Cl", "note": "(centres undefined)", "fluorescence intensity": "inactive: 4510"}, {"smiles": "CP(=O)(Nc1ccccn1)Oc1ccc(Cl)cc1", "note": "(centres undefined)", "fluorescence intensity": "inactive: 4130"}, {"smiles": "CSc1ccc(Nc2c([N+](=O)[O-])cc([N+](=O)[O-])cc2[N+](=O)[O-])cc1", "fluorescence intensity": "inactive: 3550"}, {"smiles": "O=C(OC1CN2CCC1CC2)c1cccc([N+](=O)[O-])c1", "note": "(centres undefined)", "fluorescence intensity": "inactive: 3880"}, {"smiles": "CCOP(C)(=S)SCC(=O)NC(C)C(=O)O", "note": "(centres undefined)", "fluorescence intensity": "inactive: 2830"}, {"smiles": "CCOC(=O)c1ccc(NC(=O)C(C)(CCl)SC)cc1", "note": "(centres undefined)", "fluorescence intensity": "inactive: 3580"}, {"smiles": "CCOC(=O)c1ccc(NP(C)(=O)Oc2ccc(OC)cc2)cc1", "note": "(centres undefined)", "fluorescence intensity": "inactive: 9010"}, {"smiles": "COP(=O)(OC)N1CC1c1ccccc1", "note": "(centres undefined)", "fluorescence intensity": "inactive: 3670"}, {"smiles": "Cc1cc(SC(NC(=O)c2ccccc2)C(Cl)(Cl)Cl)nc(C(C)C)n1", "note": "(centres undefined)", "fluorescence intensity": "inactive: 2080"}, {"smiles": "CCCCOc1ccc(C(=O)NCC2(N3CCCCC3)CCCCC2)cc1OC", "fluorescence intensity": "inactive: 8390"}, {"smiles": "O=C(O)C(=O)c1ccc(N(CCCl)CCCl)cc1.c1ccc(Nc2ccccc2)cc1", "fluorescence intensity": "inactive: 3450"}, {"smiles": "CCOC(=O)Nc1ccc([As](=O)(O)O)c(O)c1", "fluorescence intensity": "inactive: 4060"}, {"smiles": "CC1CCNP(=O)(N(CCCl)CCCl)O1", "note": "(centres undefined)", "fluorescence intensity": "inactive: 4080"}, {"smiles": "COc1ccccc1OP(C)(=O)Nc1ccccc1", "note": "(centres undefined)", "fluorescence intensity": "inactive: 4660"}, {"smiles": "O=P(Nc1ccccn1)(c1cccc2ccccc12)c1cccc2ccccc12", "fluorescence intensity": "inactive: 4610"}, {"smiles": "Cc1cc(SC(NC=O)C(Cl)(Cl)Cl)ncn1", "note": "(centres undefined)", "fluorescence intensity": "inactive: 2000"}, {"smiles": "O=[N+]([O-])c1ccc(Nc2ccc(Oc3ccc([N+](=O)[O-])cc3[N+](=O)[O-])cc2)c([N+](=O)[O-])c1", "fluorescence intensity": "inactive: 4860"}, {"smiles": "CP(=O)(Nc1ccccc1Br)Oc1ccccc1", "note": "(centres undefined)", "fluorescence intensity": "inactive: 7760"}]}]}
